PubChem BioAssay AID624099, ICCB-Longwood, 2012

Test: 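Knock-downs relieving repression by E2 of an HPV18 LCR luciferase reporter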 (primary screen)
Cells: human C33A cervical carcinoma cells (HPV-negative) stably expressing BPV1 E2 and an HPV18 LCR luciferase reporter
Knock-down reagent: siRNA pool against human genes, 40 nM
Duration: 72 h
Measured: 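HPV18 LCR reporter light per well, converted to plate-wise z-scores that exclude control wells, and averaged over triplicate plates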
Direction: mean z-score and z-score: higher = stronger reporter signal, weaker E2 silencing
Hit rule: 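Mean z ≥ 2 together with z ≥ 2 in two or more of the three replicates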
The whole screen tested about 21,000 reagents; shown is a part drawn at random. 497 of all reagents (2.4%) count as active. 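Higher z means weaker E2 silencing; only reporter increases were scored, and knock-downs that hurt cell survival may mask genuine repressor factors.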 A number with no mark means an inactive call.

target	PubChem SID	mean z-score	z-score, replicate A	z-score, replicate B	z-score, replicate C
C16orf82	SID134323194	0.14	0.59	0.23	-0.4
LOC389031 (retired record)	SID134327230	0.35	0.66	0.46	-0.06
TM7SF3	SID134311175	1.25	1.09	1.25	1.42
PTPN7	SID134313269	0.47	0.29	0.58	0.55
H2AJ	SID134311815	-0.06	0.3	-0.26	-0.23
SYNGR4	SID134316751	0.68	1.25	0.31	0.48
GNS	SID134313110	0.09	-0.02	-0.13	0.42
LAMA4	SID134316033	-0.3	-0.5	0.03	-0.43
PALM	SID134323375	-1	-1.08	-1.12	-0.79
LOC149704 (retired record)	SID134325971	1.48	1.35	1.61	1.49
OR6C70	SID134329939	0.86	0.96	0.95	0.68
DAO	SID134314472	1.35	1.28	1.25	1.54
NELL2	SID134316474	0.39	0.12	0.39	0.66
PDE7B	SID134312699	-0.45	-0.87	-0.86	0.38
HNRNPA1P4	SID134328021	1.82	1.33	1.67	2.47
FSHB	SID134316801	-0.16	-0.21	-0.09	-0.17
PRDM9	SID134324339	-0.14	0.04	-0.24	-0.22
KIR2DL5A	SID134324029	-0.9	-0.75	-1.02	-0.93
ARAF	SID56478682	0.02	-0.33	0.33	0.07
C1orf162	SID134321681	0.04	0.25	-0.02	-0.12
LOC400682	SID134329003	1.07	1.01	1.24	0.95
HSP90AA1	SID134310791	0.13	0.18	0.07	0.14
BMP7	SID134315919	-1.07	-0.85	-1.02	-1.36
